The nature of this series: general procedure: Fmoc solid-phase peptide synthesis; Fmoc-Phe(OtBu)-Wang resin (0.5 mmol/g loading); Fmoc-Cys(Boc)-Wang resin (0.55 mmol/g loading) for Delta-C-ter variant; dicyclohexylcarbodiimide/1-hydroxy-7-azabenzotriazole (HOAT). The following applies: oxidative folding step, several disulfide bridges, sequence written open.

In turn, --A--CLGQWDSCDPKASKCCPNYACEWKYPWCRYKLF- gave an oxidative folding yield of 12%.

For the origin of these results see PMC6784069 (Toxins, 2019).
